This passage reports HBV/mock results from publication PMC9104152, “Phosphoproteomics Unravel HBV Triggered Rewiring of Host Phosphosignaling Events” (International Journal of Molecular Sciences, 2022).

This data set deals with HepG2-NTCP cells. Nature of the data set: TMT-based phosphoproteome profiling of HBV-infected vs mock HepG2-NTCP (HBV/mock ratio). Also noted: species or system human. To be noted: phosphosite abundance ratio of host protein, HBV-infected vs mock HepG2-NTCP, 7dpi, sheet Up-regulated.

B1: Q99856 1xPhospho [S101(100)] (protein, UniProt Q99856 1-593, looked up)
AT-rich interactive …: MKLQAVMETLLQRQQRARQELEARQQLPPDPPAAPPGRARAAPDEDREPESARMQRAQMAALAAMRAAAAGLGHPASPGGSEDGPPGSEEEDAAREGTPGSPGRGREGPGEEHFEDMASDEDMKPKWEEEEMEEDLGEDEEEEEEDYEDEEEEEDEEGLGPPGPASLGTTALFPRKAQPPQAFRGDGVPRVLGGQERPGPGPAHPGGAAHVAPQLQPPDHGDWTYEEQFKQLYELDGDPKRKEFLDDLFSFMQKRGTPVNRIPIMAKQVLDLFMLYVLVTEKGGLVEVINKKLWREITKGLNLPTSITSAAFTLRTQYMKYLYPYECEKRGLSNPNELQAAIDSNRREGRRQSFGGSLFAYSPGGAHGMLSSPKLPVSSLGLAASTNGSSITPAPKIKKEEDSAIPITVPGRLPVSLAGHPVVAAQAAAVQAAAAQAAVAAQAAALEQLREKLESAEPPEKKMALVADEQQRLMQRALQQNFLAMAAQLPMSIRINSQASESRQDSAVNLTGTNGSNSISMSVEINGIMYTGVLFAQPPAPTPTSAPNKGGGGGGGSSSNAGGRGGNTGTSGGQAGPAGLSTPSTSTSNNSLP
modifications: phosphorylated S101
For B1, the HBV/mock is on record as 1.485.

B2: Q5VT52 1xPhospho [S1099(100)] (protein, UniProt Q5VT52 2-1461, looked up)
Regulation of nuclear …: AAGGGGGSSKASSSSASSAGALESSLDRKFQSVTNTMESIQGLSSWCIENKKHHSTIVYHWMKWLRRSAYPHRLNLFYLANDVIQNCKRKNAIIFRESFADVLPEAAALVKDPSVSKSVERIFKIWEDRNVYPEEMIVALREALSTTFKTQKQLKENLNKQPNKQWKKSQTSTNPKAALKSKIVAEFRSQALIEELLLYKRSEDQIELKEKQLSTMRVDVCSTETLKCLKDKTGGKKFSKEFEEASSKLEEFVNGLDKQVKNGPSLTEALENAGIFYEAQYKEVKVVANAYKTFANRVNNLKKKLDQLKSTLPDPEESPVPSPSMDAPSPTGSESPFQGMGGEESQSPTMESEKSATPEPVTDNRDVEDMELSDVEDDGSKIIVEDRKEKPAEKSAVSTSVPTKPTENISKASSCTPVPVTMTATPPLPKPVNTSLSPSPALALPNLANVDLAKISSILSSLTSVMKNTGVSPASRPSPGTPTSPSNLTSGLKTPAPATTTSHNPLANILSKVEITPESILSALSKTQTQSAPALQGLSSLLQSVTGNPVPASEAASQSTSASPANTTVSTIKGRNLPSSAQPFIPKSFNYSPNSSTSEVSSTSASKASIGQSPGLPSTTFKLPSNSLGFTATHNTSPAAPPTEVTICQSSEVSKPKLESESTSPSLEMKIHNFLKGNPGFSGLNLNIPILSSLGSSAPSESHPSDFQRGPTSTSIDNIDGTPVRDERSGTPTQDEMMDKPTSSSVDTMSLLSKIISPGSSTPSSTRSPPPGRDESYPRELSNSVSTYRPFGLGSESPYKQPSDGMERPSSLMDSSQEKFYPDTSFQEDEDYRDFEYSGPPPSAMMNLEKKPAKSILKSSKLSDTTEYQPILSSYSHRAQEFGVKSAFPPSVRALLDSSENCDRLSSSPGLFGAFSVRGNEPGSDRSPSPSKNDSFFTPDSNHNSLSQSTTGHLSLPQKQYPDSPHPVPHRSLFSPQNTLAAPTGHPPTSGVEKVLASTISTTSTIEFKNMLKNASRKPSDDKHFGQAPSKGTPSDGVSLSNLTQPSLTATDQQQQEEHYRIETRVSSSCLDLPDSTEEKGAPIETLGYHSASNRRMSGEPIQTVESIRVPGKGNRGHGREASRVGWFDLSTSGSSFDNGPSSASELASLGGGGSGGLTGFKTAPYKERAPQFQESVGSFRSNSFNSTFEHHLPPSPLEHGTPFQREPVGPSSAPPVPPKDHGGIFSRDAPTHLPSVDLSNPFTKEAALAHAAPPPPPGEHSGIPFPTPPPPPPPGEHSSSGGSGVPFSTPPPPPPPVDHSGVVPFPAPPLAEHGVAGAVAVFPKDHSSLLQGTLAEHFGVLPGPRDHGGPTQRDLNGPGLSRVRESLTLPSHSLEHLGPPHGGGGGGGSNSSSGPPLGPSHRDTISRSGIILRSPRPDFRPREPFLSRDPFHSLKRPRPPFARGPPFFAPKRPFFPPRY
modifications: phospho S1099
Take B2: the HBV/mock worked out at 1.372.

B3: Q9Y3B9 2xPhospho [S58(99.6); S67(100)] (protein, UniProt Q9Y3B9 2-282, looked up)
RRP15-like protein: AAAAPDSRVSEEENLKKTPKKKMKMVTGAVASVLEDEATDTSDSEGSCGSEKDHFYSDDDAIEADSEGDAEPCDKENENDGESSVGTNMGWADAMAKVLNKKTPESKPTILVKNKKLEKEKEKLKQERLEKIKQRDKRLEWEMMCRVKPDVVQDKETERNLQRIATRGVVQLFNAVQKHQKNVDEKVKEAGSSMRKRAKLISTVSKKDFISVLRGMDGSTNETASSRKKPKAKQTEVKSEEGPGWTILRDDFMMGASMKDWDKESDGPDDSRPESASDSDT
modifications: phosphorylated S58, S67
On to B3, for which the HBV/mock was found to be 1.458.

B4: Q14498 1xPhospho [S136(100)] (protein, UniProt Q14498 2-530, looked up)
RNA-binding protein 39: ADDIDIEAMLEAPYKKDENKLSSANGHEERSKKRKKSKSRSRSHERKRSKSKERKRSRDRERKKSKSRERKRSRSKERRRSRSRSRDRRFRGRYRSPYSGPKFNSAIRGKIGLPHSIKLSRRRSRSKSPFRKDKSPVREPIDNLTPEERDARTVFCMQLAARIRPRDLEEFFSTVGKVRDVRMISDRNSRRSKGIAYVEFVDVSSVPLAIGLTGQRVLGVPIIVQASQAEKNRAAAMANNLQKGSAGPMRLYVGSLHFNITEDMLRGIFEPFGRIESIQLMMDSETGRSKGYGFITFSDSECAKKALEQLNGFELAGRPMKVGHVTERTDASSASSFLDSDELERTGIDLGTTGRLQLMARLAEGTGLQIPPAAQQALQMSGSLAFGAVAEFSFVIDLQTRLSQQTEASALAAAASVQPLATQCFQLSNMFNPQTEEEVGWDTEIKDDVIEECNKHGGVIHIYVDKNSAQGNVYVKCPSIAAAIAAVNALHGRWFAGKMITAAYVPLPTYHNLFPDSMTATQLLVPSRR
modifications: phosphorylated S136
Regarding B4, the HBV/mock is listed as 1.371.

B5: O43818 1xPhospho [S53(99.6)] (protein, UniProt O43818 1-475, looked up)
U3 small nucleolar …: MSATAAARKRGKPASGAGAGAGAGKRRRKADSAGDRGKSKGGGKMNEEISSDSESESLAPRKPEEEEEEELEETAQEKKLRLAKLYLEQLRQQEEEKAEARAFEEDQVAGRLKEDVLEQRGRLQKLVAKEIQAPASADIRVLRGHQLSITCLVVTPDDSAIFSAAKDCSIIKWSVESGRKLHVIPRAKKGAEGKPPGHSSHVLCMAISSDGKYLASGDRSKLILIWEAQSCQHLYTFTGHRDAVSGLAFRRGTHQLYSTSHDRSVKVWNVAENSYVETLFGHQDAVAALDALSRECCVTAGGRDGTVRVWKIPEESQLVFYGHQGSIDCIHLINEEHMVSGADDGSVALWGLSKKRPLALQREAHGLRGEPGLEQPFWISSVAALLNTDLVATGSHSSCVRLWQCGEGFRQLDLLCDIPLVGFINSLKFSSSGDFLVAGVGQEHRLGRWWRIKEARNSVCIIPLRRVPVPPAAGS
modifications: phosphorylated S53
On to B5, for which the HBV/mock was found to be 6.455.

B6: Q08999 1xPhospho [S1068(100)] (protein, UniProt Q08999 1-1139, looked up)
Retinoblastoma-like protein 2: MPSGGDQSPPPPPPPPAAAASDEEEEDDGEAEDAAPPAESPTPQIQQRFDELCSRLNMDEAARAEAWDSYRSMSESYTLEGNDLHWLACALYVACRKSVPTVSKGTVEGNYVSLTRILKCSEQSLIEFFNKMKKWEDMANLPPHFRERTERLERNFTVSAVIFKKYEPIFQDIFKYPQEEQPRQQRGRKQRRQPCTVSEIFHFCWVLFIYAKGNFPMISDDLVNSYHLLLCALDLVYGNALQCSNRKELVNPNFKGLSEDFHAKDSKPSSDPPCIIEKLCSLHDGLVLEAKGIKEHFWKPYIRKLYEKKLLKGKEENLTGFLEPGNFGESFKAINKAYEEYVLSVGNLDERIFLGEDAEEEIGTLSRCLNAGSGTETAERVQMKNILQQHFDKSKALRISTPLTGVRYIKENSPCVTPVSTATHSLSRLHTMLTGLRNAPSEKLEQILRTCSRDPTQAIANRLKEMFEIYSQHFQPDEDFSNCAKEIASKHFRFAEMLYYKVLESVIEQEQKRLGDMDLSGILEQDAFHRSLLACCLEVVTFSYKPPGNFPFITEIFDVPLYHFYKVIEVFIRAEDGLCREVVKHLNQIEEQILDHLAWKPESPLWEKIRDNENRVPTCEEVMPPQNLERADEICIAGSPLTPRRVTEVRADTGGLGRSITSPTTLYDRYSSPPASTTRRRLFVENDSPSDGGTPGRMPPQPLVNAVPVQNVSGETVSVTPVPGQTLVTMATATVTANNGQTVTIPVQGIANENGGITFFPVQVNVGGQAQAVTGSIQPLSAQALAGSLSSQQVTGTTLQVPGQVAIQQISPGGQQQKQGQSVTSSSNRPRKTSSLSLFFRKVYHLAAVRLRDLCAKLDISDELRKKIWTCFEFSIIQCPELMMDRHLDQLLMCAIYVMAKVTKEDKSFQNIMRCYRTQPQARSQVYRSVLIKGKRKRRNSGSSDSRSHQNSPTELNKDRTSRDSSPVMRSSSTLPVPQPSSAPPTPTRLTGANSDMEEEERGDLIQFYNNIYIKQIKTFAMKYSQANMDAPPLSPYPFVRTGSPRRIQLSQNHPVYISPHKNETMLSPREKIFYYFSNSPSKRLREINSMIRTGETPTKKRGILLEDGSESPAKRICPENHSALLRRLQDVANDRGSH
modifications: phospho S1068
With B6, the HBV/mock turned out to be 1.414.
